## Deep mutational scan of the Zika virus protease

The scanned region of Zika virus MR766 is shown below (positions 1-308): NS2B is 2-131, NS3 begins at position 132.
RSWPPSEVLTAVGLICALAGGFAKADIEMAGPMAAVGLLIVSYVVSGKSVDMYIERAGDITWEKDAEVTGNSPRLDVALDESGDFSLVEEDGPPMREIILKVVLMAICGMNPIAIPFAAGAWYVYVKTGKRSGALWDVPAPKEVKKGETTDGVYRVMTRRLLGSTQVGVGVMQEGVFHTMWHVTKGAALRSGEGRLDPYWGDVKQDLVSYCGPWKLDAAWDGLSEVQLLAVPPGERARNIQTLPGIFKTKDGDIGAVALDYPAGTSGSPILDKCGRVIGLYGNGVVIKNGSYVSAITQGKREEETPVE

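Mutant virus pools were grown in human Huh-7.5 cells. Deep sequencing gave the change in frequency of each mutant relative to wild type, averaged over three replicate libraries (two for positions 207-308).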

The number is log2 of the effect relative to wild type; negative values mean reduced growth, higher values better tolerance. Each entry names the wild-type residue, its position and the residue put in its place. All changes here are to a stop codon. An asterisk is a stop codon; stop codons read about -7, near the floor of the assay. The region was split into three libraries (1-103, 104-206, 207-308). Position 1 still belongs to NS2A. In the paper, -1 or higher counts as tolerated. Six mutants with high scores were retested singly and none clearly outgrew wild type, so positive values are not proof of better growth.

change	log2 effect
A256*	-7.65
V257*	-5.99
A258*	-6.80
L259*	-7.57
D260*	-6.39
Y261*	-7.07
P262*	-6.04
A263*	-7.33
G264*	-7.26
T265*	-4.79
S266*	-7.97
G267*	-7.71
S268*	-6.66
P269*	-6.62
I270*	-6.07
L271*	-6.00
D272*	-5.11
K273*	-6.07
C274*	-6.88
G275*	-6.85
R276*	-7.20
V277*	-6.57
I278*	-6.88
G279*	-7.38
L280*	-7.09
Y281*	-7.64
G282*	-5.96
N283*	-7.18
G284*	-6.76
V285*	-6.31
V286*	-6.97
I287*	-7.00
K288*	-6.14
N289*	-6.68
G290*	-7.96
S291*	-6.75
Y292*	-6.37
V293*	-6.48
S294*	-6.83
A295*	-6.52
I296*	-6.56
T297*	-5.84
Q298*	-7.32
G299*	-7.90
K300*	-7.35
R301*	-7.19
E302*	-8.07
E303*	-8.24
E304*	-7.72
T305*	-6.72
P306*	-6.73
V307*	-6.37
E308*	-7.41

The opening 4 entries, copied out:

change	log2 effect
A256*	-7.65
V257*	-5.99
A258*	-6.80
L259*	-7.57

From the data files of Ni et al. 2025, doi:10.1038/s41467-025-63602-z.